## Screening data, single-dose tests

Source: ChEMBL document CHEMBL3988442, “University of Dundee, Small-Polar-MMV Screening Library” (2021).

Values are the deposited “Percent Effect”, in %.
The record does not define 0% and 100%; most values in the screen are far below 50% and negative numbers occur (in some assays of this library far below -100).
Many other results are left out here, so strong results are more common than in the screen.
A dash means the value is not listed here; it may have been measured.

A: 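Phenotypic screen: M. tuberculosis growth, glucose 7H9 medium, 3 days; the read-out is not stated. Tested at 500 µM. Direction is inferred from retests: higher values go with more growth inhibition. Size under these conditions: about 18,000 compounds, about 1,400 of them at 50% or above in at least one test.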
B: 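Phenotypic screen: M. tuberculosis growth, cholesterol and DPPC medium, 4 days; the read-out is not stated. Tested at 500 µM. Higher reads as more growth inhibition (inferred: compounds with an IC50 in retests scored well above the rest). About 18,000 compounds were tested under these conditions; 5% (about 900) showed 50% or more at least once.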

| # | structure | A | B |
|---|---|---|---|
| 1 | `CN(Cc1ccc(-n2cccn2)cc1)C(=O)[C@@H]1CCN1` | 27.53 | - |
| 2 | `NC1CCN(c2ncccc2F)C1` (stereo not given) | 73.17 | 27.18 |
| 3 | `CCN(CC1CCCO1)C(=O)CCCc1cn[nH]c1` (stereo not given) | 9.83 | - |
| 4 | `CN1CCC(NC(=O)c2coc(Br)c2)CC1=O` (stereo not given) | 59.11 | - |
| 5 | `CC(C)n1cnnc1CCNC(=O)CCC(F)(F)F` | 3.387 | - |
| 6 | `CCNC(=O)c1ccn(-c2ccccc2)n1` | 56.98 | 64.13 |
| 7 | `Cc1c[nH]c(C(=O)N2CCCN(C3CCCC3)CC2)n1` | 10.86 | - |
| 8 | `CC1(C(=O)NCCOC(N)=O)CCCc2ccccc21` (stereo not given) | 5.771 | - |
| 9 | `CNC(=O)Cc1noc(COC2CCCCC2)n1` | - | 11.97 |
| 10 | `COCCOCCCNC(=O)C(C)(C)n1cc(Br)cn1` | 16.27 | - |
| 11 | `CCc1ccsc1C(=O)NC(C)c1ncon1` (stereo not given) | 23.61 | - |
| 12 | `COC(=O)C(N)c1ccn(C)n1` (stereo not given) | 18.87 | - |
| 13 | `N#Cc1cc(F)ccc1N1CCNCC1` | 23.47 | - |
| 14 | `CCn1ccnc1CNCC1CCN(CC(C)O)CC1` (stereo not given) | 14.47 | - |
| 15 | `COCc1cccc(S(=O)(=O)N2CC[C@H](N)C2)c1` | 12.64 | -1.32 |
| 16 | `CC(C)CN(CC(N)=O)CC(=O)NC1CC1` | -12.98 | - |
| 17 | `CNS(=O)(=O)CC(=O)N(C)CCc1ccccc1F` | -8.404 | - |
| 18 | `C[C@@H](N)C(=O)N1CCCC1Cc1cccc(F)c1` (stereo not given in full) | - | 17.12 |
| 19 | `N#Cc1ccc(C(=O)Nc2cncc(Br)c2O)nc1` | 8.005 | - |
| 20 | `CS(=O)(=O)c1cccc(Oc2nccnc2C#N)c1` | - | 13.8 |
| 21 | `Cc1nnc(CCNC(=O)CN2CCC(N(C)C)C2)s1` (stereo not given) | - | 10.47 |
| 22 | `CCC(=O)[C@@H]1CCCN1` | -9.061 | - |
| 23 | `CCN1CCN(CC(=O)Nc2cc(C)ccc2C)CC1` | 19.28 | - |
| 24 | `COc1cccc(CNC(=O)CCn2ccc(C)n2)c1` | 33.49 | - |
| 25 | `COc1cc(C(=O)CCN(C)C)cc(OC)c1OC` | 104.9 | 111 |
| 26 | `COc1ccc2nc(NCC(O)CO)ccc2c1` (stereo not given) | 0.5734 | - |
| 27 | `COC(=O)c1cccc(OCC(O)C(F)(F)F)c1` (stereo not given) | - | 55.85 |
| 28 | `CC(CC(=O)N1CCOCC1)NC(=O)c1ccccc1` (stereo not given) | - | 22.82 |
| 29 | `COc1ccccc1C(O)c1ccccn1` (stereo not given) | 13.16 | - |
| 30 | `COC(=O)CC1NCCNC1=O` (stereo not given) | - | 0.2109 |
| 31 | `CCN1CCC(CNC(=O)c2ccncc2F)C1` (stereo not given) | - | 10.01 |
| 32 | `NCc1ccc(NC(=O)CCN2CCCC2)cc1` | 0.4663 | - |
| 33 | `CN(C)[C@@H]1CN(C(=O)c2nccn2C)C[C@H]1CO` | -11.3 | - |
| 34 | `Cc1cnn(CCNC(=O)CCCN2CCCCC2)c1` | 5.924 | - |
| 35 | `N#Cc1cc(CN2CCCC3(C2)OCCO3)ccc1F` | 2.191 | - |
| 36 | `CS(=O)(=O)N1CCCC(NC(=O)NC2CC2)C1` (stereo not given) | 11.1 | - |
| 37 | `CNC(=O)c1ccc(N2CCOCC2)c(F)c1` | -13.28 | - |
| 38 | `Cc1cc(C2CCCN2C(=O)[C@@H]2CCCN2)on1` (stereo not given in full) | -7.496 | - |
| 39 | `CCNCc1cc(Cl)c(OCC(N)=O)c(OC)c1` | 10.84 | 11.49 |
| 40 | `CCCn1ccc(CN)n1` | - | 10.7 |
| 41 | `CCCOc1cc(C)ccc1NC(=O)Cn1cnnn1` | - | 56.13 |
| 42 | `CNC(=O)c1ccc(CNC(=O)C2CCOC2)o1` (stereo not given) | - | -8.158 |
| 43 | `NC(CO)Cc1ccncc1` (stereo not given) | - | -18.77 |
| 44 | `CC(C)C(NS(=O)(=O)N1CCOCC1)c1ccccc1` (stereo not given) | 51.6 | - |
| 45 | `CC(C)c1cccc(S(=O)(=O)N(C)Cc2nnc[nH]2)c1` | 51.11 | - |
| 46 | `CCCN1CCCN(C(=O)CCS(C)(=O)=O)CC1` | - | 25.22 |
| 47 | `COc1ccc(CN2CCC(NC(C)=O)CC2)cc1F` | - | 3.924 |
| 48 | `CCOc1ccc(NC(=O)CNC)cc1OCC` | 18.51 | - |
| 49 | `Cc1c(C(=O)N(CC2CCOC2)C2CC2)cnn1C` (stereo not given) | -11.38 | - |
| 50 | `Cc1ccc(CNCc2cncs2)c(N2CCCC2)n1` | - | -10.55 |

5 of the entries, repeated:

{"structure": "CCc1ccsc1C(=O)NC(C)c1ncon1", "stereo": "stereo not given", "A": 23.61}
{"structure": "N#Cc1cc(CN2CCCC3(C2)OCCO3)ccc1F", "A": 2.191}
{"structure": "CCCOc1cc(C)ccc1NC(=O)Cn1cnnn1", "B": 56.13}
{"structure": "COC(=O)C(N)c1ccn(C)n1", "stereo": "stereo not given", "A": 18.87}
{"structure": "NC(CO)Cc1ccncc1", "stereo": "stereo not given", "B": -18.77}